Results of unrelated studies side by side (data: NIAID ChemDB).

Shared fields: whole-cell or culture tests; species: Poliovirus

Percent inhibition refers to the dose given; in toxicity tests it is the harm to the cells. An empty or dashed field is not shown. ECn: concentration that inhibits the pathogen or its effect by n%. Conditions beyond the fields shown may differ between rows.

compound | strain or isolate | cells | read-out | tested at | value
Cc1cc(CCCCCOc2ccc(-c3ncon3)cc2)on1 | TYPE 2 | - | MIC | - | 0.05 µg/mL
Clc1ccc(C2=Cc3cc(Cl)ccc3OC2)cc1 | SABIN (TYPE 2) | HEP-2 | inhibition | 10 µM | 48%
CSc1nsc(-c2cccnc2)c1C#N | Type 1/Brunhilde | HEP-2 | EC50 | - | 0.75 µM
Brc1ccc(C2=Cc3cc(Br)ccc3OC2)cc1 | IA (TYPE 2) | HEP-2 | inhibition | 10 µM | 47%
Cn1ccnc1SCc1cccc(CSc2nc3ccccc3s2)n1 | - | - | MIC | - | 0.26 µM
CCC(=O)C(CCCCCCOc1ccc(OC)cc1Cl)C(=O)CC | MEF (TYPE 2) | HeLa | inhibition | 0.02 µM | 17%
Clc1ccc2c(c1)CC(c1ccccc1)CO2 | II (TYPE 2) | HEP-2 | inhibition | 10 µM | 43%
C=C(CC[C@@H](COS(=O)(=O)O)[C@H]1CC[C@H]2[C@@H]3CC[C@@H]4[C@H](O)[C@H](OS(=O)(=O)O)CC[C@]4(C)[C@H]3[C@@H](O)C[C@]12C)C(C)C | SABIN (TYPE 3) | VERO | inhibition | 20 µg/mL | 38%
CSc1nsc(-c2c(Cl)cccc2Cl)c1C#N | Type 1/Brunhilde | HEP-2 | EC50 | - | >5 µM
Nc1nccc2c1ncn2[C@@H]1C[C@H](CO)[C@@H](O)[C@H]1O | TYPE 1 | - | MIC | - | >400 µg/mL
CSc1nsc(-c2ccc(Cl)cc2Cl)c1C#N | Type 1/Brunhilde | HEP-2 | EC50 | - | >8 µM
CC(=O)c1ccc2c(c1)Sc1ccccc1O2 | TYPE 3 | BSC-1 | inhibition | 2 µg/mL | 100%
Nc1nccc2c1ncn2[C@@H]1C=C[C@@H](O)[C@H]1O | TYPE 1 | - | MIC | - | >400 µg/mL
CSc1nsc(-c2cc[n+](C)cc2)c1C#N | Type 1/Brunhilde | HEP-2 | EC50 | - | >1000 µM
CC(=O)c1cccc(Oc2ccccc2)c1 | TYPE 3 | BSC-1 | inhibition | 2 µg/mL | 100%
CSc1nsc(-c2ccc(O)cc2)c1C#N | Type 1/Brunhilde | HEP-2 | EC50 | - | 0.4 µM
CCC1COC(c2ccc(OCCCCC(=O)c3ccc(C)s3)cc2)=N1 | TYPE 2 | VERO | EC50 | - | >26.95 µM
CSc1nsc(C)c1C#N | Type 1/Brunhilde | HEP-2 | EC50 | - | 12.5 µM
Cc1ccc(C(=O)CCCCCCOc2ccc(C3=N[C@@H](C)CO3)cc2)s1 | TYPE 2 | VERO | EC50 | - | >25.97 µM
CC(=O)c1ccc2c(c1)S(=O)(=O)c1ccccc1O2 | TYPE 3 | BSC-1 | inhibition | 2 µg/mL | 12%
Cc1ccc(C(=O)CCCCOc2ccc(C3=N[C@@H](C)CO3)cc2)s1 | TYPE 1 | VERO | EC50 | - | >28.01 µM
COC(C)c1ccc2c(c1)Sc1ccccc1O2 | TYPE 3 | BSC-1 | inhibition | 2 µg/mL | 10%
Cc1ccc(C(=O)CCCCCCOc2ccc(C3=N[C@H](C)CO3)cc2)s1 | TYPE 3 | VERO | EC50 | - | 4.98 µM
CC(C)C/C=C/[C@@H](COS(=O)(=O)O)[C@H]1CC[C@H]2[C@@H]3CC[C@@H]4[C@H](O)[C@H](OS(=O)(=O)O)CC[C@]4(C)[C@H]3[C@@H](O)C[C@]12C | SABIN (TYPE 3) | VERO | inhibition | 40 µg/mL | 47%